Among the data in PubChem BioAssay AID1986 (Sanford-Burnham Center for Chemical Genomics, 2009) are inhibition values, retold here.

The structures appear in SMILES notation. Where “and” joins values, the source holds several entries; their conditions need not be identical. Identical values can stand only once. The entries are a selection whose mix differs from that of the whole data set. Calls of active or inactive are those of the source. Rule as the data show it: active = inhibition mostly above about 52% (no sharp cut-off); inactive = mostly below about 76%.

The test is described as follows: cell-free HIV fusion peptide-binding blockers – biochemical, uHTS, fluorescence dequenching, primary screen (AID 1986). Conditions: HIV Env-mediated cell-cell fusion, fluorescence reporter; at 20 µM; stronger effect = higher value.
Broadly, the inhibition is the relative decrease from the control value, in per cent. With `CCOc1ccc(C2=NCC(CBr)S2)cc1` (configuration not stated), the inhibition was inactive: -1.4%.

On to `O=P1(Nc2nc3ccc(Cl)cc3s2)COc2ccccc2O1` (configuration not stated), for which the inhibition was inactive: 1.6%.

For the compound `CC(C)(C)C(=O)NC(Sc1ccccc1)C(Cl)(Cl)Cl` (configuration not stated), the inhibition was inactive: -1%.

Take `CC(=O)c1ccc(N2CC2c2ccncc2)cc1` (configuration not stated): the inhibition was inactive: -1%.

`C[C@H]1OP(=O)(Oc2ccccc2)C[C@@H]2O[C@@H]21` (some centres not stated): the inhibition is inactive: 0%.

As to `C[C@@H]1C=CCP(=O)(Oc2ccccc2)O1` (some centres not stated), the inhibition was inactive: -0.2%.

For the compound `CC(=O)Nc1ccc(Oc2c([N+](=O)[O-])cc([N+](=O)[O-])cc2[N+](=O)[O-])cc1`, the inhibition was inactive: 2.7%.

For the compound `CC(=O)Nc1ccc([As](=O)(O)O)c(O)c1`, the inhibition is inactive: 0.4%.

With `O=C(NC1CCS(=O)(=O)C1)NP(=S)(Oc1ccccc1)Oc1ccccc1` (configuration not stated), the inhibition is inactive: -2.6%.

For the compound `CCNC(=S)/N=C(\N)N[N+](=O)[O-]`, the inhibition was inactive: 0.1%.

For the compound `CCOC(=O)NC(Sc1ccccc1)C(Cl)(Cl)Cl` (configuration not stated), the inhibition is inactive: 3.1%.

For `Cc1ccc(NP(=O)(Oc2cccc(C)c2)Oc2cccc(C)c2)nc1`, the inhibition is inactive: 0.5%.

Turning to `c1ccc(-c2nn[nH]n2)c(-c2nn[nH]n2)c1`, the inhibition was inactive: -0.6%.

Turning to `Cc1ccc(OP(=O)(Nc2ccccn2)Oc2ccc(C)cc2)cc1`, the inhibition was inactive: -0.8%.

As to `CC(=O)NC(SC(=S)N(CC(C)C)CC(C)C)C(Cl)(Cl)Cl` (configuration not stated), the inhibition was inactive: 1.4%.

As for `COC(=O)c1cc2c(s1)N=C(c1ccccc1)N(C)P2(=O)N1CCOCC1` (configuration not stated), the inhibition is inactive: 1.3%.

For the compound `CCC(=O)N1C2C3N(C(=O)CC)C1C1N(C(=O)CC)C(C(N1C(=O)CC)N3C(=O)CC)N2C(=O)CC`, the inhibition was inactive: -1.1%.

As for `O=C(OC1CN2CCC1CC2)c1ccccc1` (configuration not stated), the inhibition was inactive: -0.6%.

For `O=c1c2cc([N+](=O)[O-])ccc2[nH]c2c([N+](=O)[O-])cc([N+](=O)[O-])cc12`, the inhibition is inactive: 27.2%.

Consider `CN(C)C(=O)Oc1noc2ccccc12`, for which the inhibition is inactive: -0.2%.

On to `Cc1ccccc1OP(=O)(Nc1ccccn1)Oc1ccccc1C`, for which the inhibition was inactive: 1.1%.

In the case of `CN(C)C1(CNC(=O)c2ccc(Cl)c(S(N)(=O)=O)c2)CCCCC1`, the inhibition was inactive: 1.8%.

Turning to `O=P(Nc1ccccn1)(c1ccc(Br)cc1)c1ccc(Br)cc1`, the inhibition was inactive: 1.3%.

Take `C[C@H]1OP(=O)(Oc2ccccc2)[C@H](O)[C@H](O)[C@H]1N=[N+]=[N-]` (some centres not stated): the inhibition was inactive: -0.3%.

As to `O=P(Nc1nc2ccccc2s1)(c1ccccc1)c1ccccc1`, the inhibition was inactive: 1.3%.

In the case of `O=[N+]([O-])c1ncn(CCn2cnc([N+](=O)[O-])n2)n1`, the inhibition was inactive: 1.3%.

On to `CC(=O)NC(SC(=S)N(C)C)C(Cl)(Cl)Cl` (configuration not stated), for which the inhibition was inactive: -0.8%.

For the compound `O=[N+]([O-])c1ccc(O)c(/C=N/Nc2ccc([N+](=O)[O-])cc2[N+](=O)[O-])c1`, the inhibition is inactive: 15.9%.

For `O=[As](O)(c1ccccc1)c1ccc(O)cc1`, the inhibition is inactive: -2.2%.

With `C(Cc1nn[nH]n1)Cc1nn[nH]n1`, the inhibition is inactive: 0.5%.

As for `Nc1ccc([As](=O)(O)c2ccc([N+](=O)[O-])cc2)cc1`, the inhibition is inactive: -1%.

For the compound `O=C(OC1CN2CCC1CC2)c1cccc(Cl)c1` (configuration not stated), the inhibition was inactive: -2.3%.

As to `O=P(Nc1nccs1)(c1ccccc1)c1ccccc1`, the inhibition is inactive: -0.1%.

For `CC(C)C(=O)NC(Sc1ccccc1)C(Cl)(Cl)Cl` (configuration not stated), the inhibition was inactive: 3.4%.

As for `c1nnnn1CCn1cnnn1`, the inhibition was inactive: -2%.

With `COc1ccc(C2=NCC(CBr)S2)cc1` (configuration not stated), the inhibition is inactive: 0.1%.

`CC(=O)N1C2C3N(C(C)=O)C1C1N(C(C)=O)C(C(N1C(C)=O)N3C(C)=O)N2C(C)=O`: the inhibition was inactive: -2.2%.

In the case of `O=[N+]([O-])c1cccc2n[nH]nc12`, the inhibition was inactive: 1.2%.

For the compound `O=[N+]([O-])c1cc([N+](=O)[O-])c(CCNc2ccccc2)c([N+](=O)[O-])c1`, the inhibition was inactive: 19.4%.

As to `CCc1nc2c(n1)c1c(non1O)c1c2no[n+]1[O-]`, the inhibition is inactive: 4%.

As to `Cc1ccc(NP(=O)(Oc2ccccc2)Oc2ccccc2)nc1`, the inhibition was inactive: 1.2%.

As to `C[N+]1=C2C=CC=CC=C2SC12C([N+](=O)[O-])=CC([N+](=O)[O-])=C[C-]2[N+](=O)[O-]` (configuration not stated), the inhibition was inactive: 34.9%.

Take `Nc1ccc([As](=O)(O)c2ccc(N)cc2)cc1`: the inhibition was inactive: 3.4%.

With `CCN(/C(=N/P(=O)(N1CCOCC1)N1CCOCC1)N1CCOCC1)c1ccc(OC)cc1`, the inhibition was inactive: 0.3%.

For the compound `CN(C)C(=O)OCCc1n(C)cc[n+]1C`, the inhibition was inactive: 2.2%.

Turning to `CC(C)=N/N=C(\N)N[N+](=O)[O-]`, the inhibition is inactive: -0.4%.

On to `CC1CCN(C(=O)Oc2c(Cl)cc(Cl)c3cccnc23)CC1`, for which the inhibition is inactive: -2%.

As to `O=C(Nc1cc([As](=O)(O)O)ccc1O)c1ccccc1`, the inhibition is inactive: 2.7%.

For `CC(C)(C)C(=O)NC(Sc1ccncn1)C(Cl)(Cl)Cl` (configuration not stated), the inhibition is inactive: -1.4%.

As to `O=[N+]([O-])c1ncn(CCn2ncnc2[N+](=O)[O-])n1`, the inhibition was inactive: 1.3%.

For `O=[N+]([O-])c1cccc(NC2=NCC(CBr)S2)c1` (configuration not stated), the inhibition is inactive: -0.5%.

Turning to `O=C(O)CNc1ccc([As](=O)(O)O)cc1`, the inhibition is inactive: 0.5%.

Take `CC(=O)Nc1ccc([As](=O)(O)O)cc1`: the inhibition is inactive: 0.7%.

With `O=C(O)c1ccccc1[As](=O)(O)O`, the inhibition was inactive: -0.6%.

In the case of `O=P(Nc1nc2ccc(Cl)cc2s1)(c1ccccc1)c1ccccc1`, the inhibition was inactive: 4.6%.

Consider `Cc1ccc(NP(=O)(Oc2ccccc2F)Oc2ccccc2F)nc1`, for which the inhibition was inactive: 0.1%.

On to `Cc1cc(SC(NC(=O)c2ccc(F)cc2)C(Cl)(Cl)Cl)ncn1` (configuration not stated), for which the inhibition was inactive: -0.5%.

Regarding `CCOP(=O)(Nc1ccccc1)OCC`, the inhibition was inactive: 2.6% and inactive: 1%.

Regarding `O=[N+]([O-])c1cc([N+](=O)[O-])c(CCN2CCOCC2)c([N+](=O)[O-])c1`, the inhibition was inactive: 33.6%.

On to `CCN(N=Nc1nonc1N)c1nonc1N`, for which the inhibition was inactive: 0%.

With `Nc1cccc2ccc([As](=O)(O)O)cc12`, the inhibition was inactive: 42.4%.

Take `NC(=O)c1cc([N+](=O)[O-])cc([N+](=O)[O-])c1N`: the inhibition is inactive: -1.8%.

Take `Cc1ccc(N/C(=N/P(=O)(N2CCOCC2)N2CCOCC2)N2CCOCC2)cc1`: the inhibition was inactive: 0.9%.

`Cc1ccc(OP(=O)(Nc2nccs2)Oc2ccc(C)cc2)cc1`: the inhibition was inactive: 0.6%.

With `COc1ccccc1OP(=O)(Nc1ccc(C)cn1)Oc1ccccc1OC`, the inhibition was inactive: 1.8%.

With `CN1CCCC(OC(=O)C(c2ccccc2)c2ccccc2)C1` (configuration not stated), the inhibition was inactive: -0.4%.

Take `Clc1ccc(Cl)c(NC2=NCC(CBr)S2)c1` (configuration not stated): the inhibition was inactive: -1.1%.

Turning to `Nc1cc(N)c2nonc2c1[N+](=O)[O-]`, the inhibition was inactive: -3.8%.

Turning to `CC(C)CC(=O)NC(Sc1ccc(Cl)cc1)C(Cl)(Cl)Cl` (configuration not stated), the inhibition was inactive: 4.7%.

`O=C(NC(Sc1ccncn1)C(Cl)(Cl)Cl)c1ccccc1` (configuration not stated): the inhibition was inactive: 0.5%.

For the compound `Cc1c2non([O-])c-2c(C)[n+](=O)[n+]1[O-]`, the inhibition was inactive: 0%.

Take `Oc1ccccc1CNc1ccccn1`: the inhibition is inactive: 0.1%.

For the compound `Cc1cc(=O)[nH]c(N[N+](=O)[O-])n1`, the inhibition is inactive: -0.2%.

Regarding `O=C(OC1CN2CCC1CC2)C12CC3CC(CC(C3)C1)C2` (configuration not stated), the inhibition is inactive: -2.2%.

In the case of `Cc1c2c(nc3ccccc13)SC(C(Cl)Cl)C2` (configuration not stated), the inhibition is inactive: -1.3%.

As to `COc1cc(I)ccc1[As](=O)(O)O`, the inhibition is inactive: 0.1%.

With `COc1ccc2nc(NP(=O)(c3ccccc3)c3ccccc3)sc2c1`, the inhibition is inactive: -0.2%.

`COc1ccc(N/C(=N/P(=O)(N2CCOCC2)N2CCOCC2)N2CCOCC2)cc1`: the inhibition was inactive: -0.6%.

For `C[As](=O)(O)c1cccc(C(=O)O)c1`, the inhibition was inactive: -0.2%.

Turning to `O=[As](O)(c1ccc(O)cc1)c1ccccc1O`, the inhibition is inactive: -1.6%.

Turning to `Cc1ccc2nc3c(c(C)c2c1)CC(C(Cl)Cl)S3` (configuration not stated), the inhibition was inactive: 5.9%.

In the case of `Cc1ccc(OP(=O)(Nc2ccc([N+](=O)[O-])cn2)Oc2ccc(C)cc2)cc1`, the inhibition is inactive: 1.2%.

With `CC(C)c1ccc(OP(=O)(Nc2ccccn2)Oc2ccccc2F)cc1` (configuration not stated), the inhibition is inactive: -0.6%.

Consider `ClCCSc1nnc(-c2cccnc2)o1`, for which the inhibition is inactive: 0.5%.

For the compound `O=[N+]([O-])c1cc([N+](=O)[O-])c(-c2ccn[nH]2)s1`, the inhibition is inactive: 42.9%.

For the compound `CC(C)NC(=O)NP(=O)(Oc1ccccc1)Oc1ccccc1`, the inhibition is inactive: -1.4%.

For the compound `CCN(CC)C(=S)SC(NC=O)C(Cl)(Cl)Cl` (configuration not stated), the inhibition is inactive: -3.4%.

On to `CCOC(=O)Nc1ccc([As](=O)(O)O)c(O)c1`, for which the inhibition was inactive: -2.5%.

Take `Cc1cc(SC(NC(=O)c2ccccc2)C(Cl)(Cl)Cl)nc(C(C)C)n1` (configuration not stated): the inhibition is inactive: -0.3%.

For the compound `CCCCOc1ccc(C(=O)NCC2(N3CCCCC3)CCCCC2)cc1OC`, the inhibition is inactive: -0.1%.

Turning to `CCOC(=O)Nc1cccc([As](=O)(O)O)c1`, the inhibition was inactive: -1%.

For the compound `O=[N+]([O-])c1ccc(Nc2ccc(Oc3ccc([N+](=O)[O-])cc3[N+](=O)[O-])cc2)c([N+](=O)[O-])c1`, the inhibition was inactive: -1.9%.

As for `Cc1cc(SC(NC=O)C(Cl)(Cl)Cl)ncn1` (configuration not stated), the inhibition is inactive: -1.9%.

Turning to `O=P(Nc1ccccn1)(c1cccc2ccccc12)c1cccc2ccccc12`, the inhibition was inactive: 0.4%.

Turning to `COP1(=S)c2c(C)nn(CCC#N)c2N=C(c2ccc(F)cc2)N1C` (configuration not stated), the inhibition is inactive: 1.1%.

As for `O=C(Nc1ccncc1[N+](=O)[O-])c1ccc([N+](=O)[O-])cc1[N+](=O)[O-]`, the inhibition was inactive: -2.5%.

For `O=C(COc1ccccc1)OC1CN2CCC1CC2` (configuration not stated), the inhibition was inactive: -0.2%.

On to `CCOC(=O)c1ccc(NC(=O)C(C)(CCl)SC)cc1` (configuration not stated), for which the inhibition was inactive: 1.6%.

As for `O=C(OC1CN2CCC1CC2)c1cccc([N+](=O)[O-])c1` (configuration not stated), the inhibition was inactive: -0.3%.

For `CCC(C)N(CC(C)C)C(=S)SC(NC(C)=O)C(Cl)(Cl)Cl` (configuration not stated), the inhibition is inactive: 0.7%.

As to `CCOP(=O)(Nc1ccc(C)cn1)OCC`, the inhibition was inactive: 1.3%.

With `CCOP(=O)(NC(=NC(C)c1ccccc1)NC(C)c1ccccc1)OCC` (configuration not stated), the inhibition is inactive: -1.4%.
